This is an account of results in publication PMC3185582 (Viruses, 2010).

This series has as its system HEK-293, L929, MRC5, and SIRC cells. Particulars: 50 uM, 72 hour; unpublished work [21].

With `O=C(NN1C(=O)[C@@H]2[C@@H]3C=C[C@@H]([C@H]4C[C@@H]34)[C@@H]2C1=O)c1ccc(C(F)(F)F)cc1` [ST-246, Tecovirimat], the “growth rate reduced relative to untreated controls” value is 30–40%.
